A mixed list of measured activities; the numbers were collected in NIAID ChemDB.

Shared fields: growth or infection tests; agent: Hepatitis C virus; read by: replicon; endpoint: EC50

ECn: concentration that inhibits the pathogen or its effect by n%.

{"compound": "CCOc1nc(N)nc2ccc(-c3ccc(NC(=O)C4(N)CC4)c(F)c3)nc12", "cell line": "Huh7", "value": "<0.3 µM"}
{"compound": "O=C(O)/C=C/c1ccc(NC(=O)C2(NC(=O)c3ccc4cc5n(c4c3)CC(=O)Nc3cccnc3-5)CCCC2)cc1", "cell line": "Huh7", "value": "0.01–1 µM"}
{"compound": "CS(=O)(=O)N(CCO)c1cccc(-c2ccc3nc(NCc4ccc(S(N)(=O)=O)cc4)nc(NCC(F)F)c3n2)c1", "value": "<0.1 µM"}
{"compound": "C=C[C@H]1C[C@@]1(NC(=O)[C@@H]1C[C@@H](Oc2ccnc3cc(Cl)ccc23)CN1C(=O)[C@@H](NC(=O)OC1CCCC1)C(C)(C)C)C(=O)NS(=O)(=O)C1(CCC)CC1", "cell line": "Huh7", "strain": "1b", "value": "0.05–0.5 µM"}
{"compound": "CNC(=O)c1c(-c2ccc(F)cc2)oc2cc(S(=O)(=O)N3CCOCC3)c(OC(C)C)cc12", "cell line": "Huh7", "value": "<10 µM"}
{"compound": "COC(=O)/C=C/c1ccc(NC(=O)C2(NC(=O)c3ccc4c(C5CCCCC5)c5n(c4c3)CCCc3nccnc3-5)CCCC2)cc1", "cell line": "Huh7", "value": "1–10 µM"}
{"compound": "C=CC1CC1(NC(=O)[C@@H]1C[C@@H](OC(=O)NC2CCCCC2)CN1C(=O)[C@@H](NC(=O)OC(C)(C)C)C(C)(C)C)C(=O)NS(=O)(=O)C1CC1", "cell line": "Huh7", "strain": "1b", "value": "1–10 µM"}
{"compound": "CN1CC[C@H](C(=O)Nc2ccc(-c3ccc4nc(NCc5ccc(S(N)(=O)=O)cc5)nc(NCC(F)(F)F)c4n3)cc2)C1", "value": "<0.1 µM"}
{"compound": "COc1cccc(CC(=O)N/N=C/c2cccc(OC)c2OS(=O)(=O)c2ccc(C(F)(F)F)cc2)c1", "cell line": "Huh7", "value": "<5 µM"}
{"compound": "NC(=O)C1Cc2ncccc2-c2c(C3CCCCC3)c3ccc(C(=O)O)cc3n2C1", "cell line": "Huh7", "value": "0.01–1 µM"}
{"compound": "Nc1nc(O[C@H]2CCOC2)c2nc(-c3ccc(C(=O)NCCCN4CCCC4)cc3)ccc2n1", "cell line": "Huh7", "value": "0.3–1 µM"}
{"compound": "C=CC1CC1(NC(=O)[C@@H]1C[C@@H](OC(=O)Nc2cc(C(F)(F)F)ccc2N2CCC(C(F)(F)F)CC2)CN1C(=O)[C@@H](NC(=O)OC(C)(C)C)C(C)(C)C)C(=O)NS(=O)(=O)C1CC1", "cell line": "Huh7", "strain": "1b", "value": "<0.1 µM"}
{"compound": "CNC(=O)c1c(-c2ccc(F)cc2)oc2cc(NC(C)C)c(OC(C)C)cc12", "cell line": "Huh7", "value": "<1 µM"}
{"compound": "C=C[C@H]1C[C@@]1(NC(=O)[C@@H]1C[C@@H](Oc2cc(-c3ccccc3)nc3cc(OC)ccc23)CN1C(=O)[C@@H](NC(=O)NC(C)(C)C)C(C)(C)C)C(=O)NS(=O)(=O)C1(Cc2ccccc2)CC1", "cell line": "Huh7", "strain": "1b", "value": "0.05–0.5 µM"}
{"compound": "O=C(NS(=O)(=O)Cc1ccccc1)c1ccc2c(C3CCCCC3)c3n(c2c1)CCCc1ncccc1-3", "cell line": "Huh7", "value": "1–10 µM"}
{"compound": "COc1cccc(CC(=O)N/N=C/c2cc(OC)ccc2OS(=O)(=O)c2ccc(C)cc2)c1", "cell line": "Huh7", "value": "<5 µM"}
{"compound": "C=CC1CC1(NC(=O)[C@@H]1C[C@@H](OC(=O)Nc2ccccc2C(=O)OC(C)C)CN1C(=O)[C@@H](NC(=O)OC(C)(C)C)C(C)(C)C)C(=O)NS(=O)(=O)C1CC1", "cell line": "Huh7", "strain": "1b", "value": "0.1–1 µM"}
{"compound": "CS(=O)(=O)CCNc1nc(NCc2ccc(S(N)(=O)=O)cc2)nc2ccc(-c3cnc(N)s3)nc12", "value": "<0.1 µM"}
{"compound": "O=C(Cc1ccccc1)N/N=C/c1ccccc1OS(=O)(=O)c1ccc(-c2ccccc2)cc1", "cell line": "Huh7", "value": ">50 µM"}
{"compound": "C=C[C@H]1C[C@@]1(NC(=O)[C@@H]1C[C@@H](Oc2cc(-c3ccccc3)nc3cc(OC)ccc23)CN1C(=O)[C@@H](NC(=O)OC(C)(C)C)C(C)(C)C)C(=O)NS(=O)(=O)C1(Cl)CC1", "cell line": "Huh7", "strain": "1b", "value": "<0.05 µM"}
{"compound": "C/C(=N\\NC(=O)Cc1cccc(Cl)c1)c1ccccc1OS(=O)(=O)c1ccc(C(F)(F)F)cc1", "cell line": "Huh7", "value": ">50 µM"}
{"compound": "C=C[C@H]1C[C@@]1(NC(=O)[C@@H]1C[C@@H](Oc2cc(-c3ccccc3)nc3cc(OC)ccc23)CN1C(=O)[C@@H](NC(=O)OC(C)(C)C)C(C)(C)C)C(=O)NS(=O)(=O)C1(Cc2cc(C)on2)CC1", "cell line": "Huh7", "strain": "1b", "value": "<0.05 µM"}
{"compound": "Cc1ccc(S(=O)(=O)Cc2ccccc2/C=N/NC(=O)Cc2ccccc2)cc1", "cell line": "Huh7", "value": "<5 µM"}
{"compound": "CNC(=O)c1c(-c2ccc(F)cc2)oc2cc(N3CCOCC3)c(OCc3noc(-c4ccc(OC)cc4)n3)cc12", "cell line": "Huh7", "value": "<1 µM"}
{"compound": "O=C(Cc1cc(F)cc(F)c1F)N/N=C/c1ccccc1OS(=O)(=O)c1ccc(C(F)(F)F)cc1", "cell line": "Huh7", "value": "<5 µM"}
{"compound": "O=C(O)C1=Cc2ccccc2-c2c(C3CCCCC3)c3ccc(C(=O)O)cc3n2C1", "cell line": "Huh7", "value": ">10 µM"}
{"compound": "Fc1ccc(-c2ccc3nc(NCC(F)(F)F)nc(O[C@H]4CCOC4)c3n2)cc1", "value": "<0.1 µM"}
{"compound": "COc1ccc2c(O[C@@H]3C[C@@H](C(=O)N[C@@]4(C(=O)NS(=O)(=O)C5(Cc6ccccc6)CC5)CC45CC5)N(C(=O)[C@@H](NC(=O)OC(C)(C)C)C(C)(C)C)C3)cc(-c3ccccc3)nc2c1", "cell line": "Huh7", "strain": "1b", "value": "5–50 µM"}
{"compound": "CNC(=O)c1c(-c2ccc(F)cc2)oc2cc(C3CCCN3C(C)=O)c(OC)cc12", "cell line": "Huh7", "value": "<1 µM"}
{"compound": "COC(=O)c1ccc2c(C3CCCCC3)c3n(c2c1)C/C(=N/O)Cc1ccccc1-3", "cell line": "Huh7", "value": "0.01–1 µM"}
{"compound": "CS(=O)(=O)CCNc1nc(NCc2ccc(S(N)(=O)=O)cc2)nc2ccc(-c3ccc(F)c(Cl)c3)nc12", "value": "<0.1 µM"}
{"compound": "CNC(=O)c1c(-c2ccc(F)cc2)oc2cc(N3CCCS3(=O)=O)c(OC(C)C)cc12", "cell line": "Huh7", "value": "<10 µM"}
{"compound": "C=CC1CC1(NC(=O)[C@@H]1C[C@@H](OC(=O)Nc2cc(F)ccc2-n2cccn2)CN1C(=O)[C@@H](NC(=O)OC(C)(C)C)C(C)(C)C)C(=O)NS(=O)(=O)C1CC1", "cell line": "Huh7", "strain": "1b", "value": "<0.1 µM"}
{"compound": "COc1cccc(OS(=O)(=O)c2ccc(C(F)(F)F)cc2)c1/C=N/NC(=O)Cc1cccc(Cl)c1", "cell line": "Huh7", "value": "<5 µM"}
{"compound": "O=C(NC1(C(=O)Nc2nccs2)CCCC1)c1ccc2c(C3CCCCC3)c3n(c2c1)CC=Cc1ccccc1-3", "cell line": "Huh7", "value": "0.01–1 µM"}
{"compound": "CNC(=O)c1c(-c2ccc(F)cc2)oc2cc(N(C)S(C)(=O)=O)c(OCc3ccc4c(c3)C(=O)OC(C)(C)O4)cc12", "cell line": "Huh7", "value": "<1 µM"}
{"compound": "C=CCCCCCCCC1(S(=O)(=O)NC(=O)[C@]2(NC(=O)[C@@H]3C[C@@H](Oc4cc(-c5ccccc5)nc5cc(OC)ccc45)CN3C(=O)[C@@H](NC(=O)OC(C)(C)C)C(C)(C)C)C[C@@H]2C=C)CC1", "cell line": "Huh7", "strain": "1b", "value": "<0.05 µM"}
{"compound": "CCOCc1cc(-c2cc3oc(-c4ccc(F)cc4)c(C(=O)NC)c3cc2OC)no1", "cell line": "Huh7", "value": "<1 µM"}
{"compound": "O=C(N/N=C/c1ccccc1OS(=O)(=O)c1ccc(C(F)(F)F)cc1)c1ccccc1[N+](=O)[O-]", "cell line": "Huh7", "value": "<5 µM"}
{"compound": "CCOc1nc(N)nc2ccc(-c3ccc(NC(=O)OC)cc3)nc12", "cell line": "Huh7", "value": "0.3–1 µM"}
{"compound": "O=C(Cc1ccccc1)N/N=C/c1ccccc1OS(=O)(=O)c1cccc(F)c1", "cell line": "Huh7", "value": ">50 µM"}
{"compound": "CCOc1nc(N)nc2ccc(-c3cccc(NS(=O)(=O)c4cn(C)cn4)c3)nc12", "cell line": "Huh7", "value": "0.3–1 µM"}
{"compound": "C=CC1CC1(NC(=O)[C@@H]1C[C@@H](OC(=O)Nc2cc(OC)ccc2-n2cccn2)CN1C(=O)[C@@H](NC(=O)OC(C)(C)C)C(C)(C)C)C(=O)NS(=O)(=O)C1CC1", "cell line": "Huh7", "strain": "1b", "value": "0.1–1 µM"}

A second listing of 3 rows from above:

{"compound": "COc1cccc(CC(=O)N/N=C/c2cccc(OC)c2OS(=O)(=O)c2ccc(C(F)(F)F)cc2)c1", "cell line": "Huh7", "value": "<5 µM"}
{"compound": "C/C(=N\\NC(=O)Cc1cccc(Cl)c1)c1ccccc1OS(=O)(=O)c1ccc(C(F)(F)F)cc1", "cell line": "Huh7", "value": ">50 µM"}
{"compound": "CN1CC[C@H](C(=O)Nc2ccc(-c3ccc4nc(NCc5ccc(S(N)(=O)=O)cc5)nc(NCC(F)(F)F)c4n3)cc2)C1", "value": "<0.1 µM"}

Neighbouring rows are from separate reports. Two numbers with a dash give a range or band.